In paper PMC8224886:
For at least one entry, the source does not settle the construct or the ends of the probe. At least one result comes from cells or an extract, where the contact may be indirect.

By UniProt entry, the sequences of proteins in these tests, tags left out.
UniProt P40763, whole entry: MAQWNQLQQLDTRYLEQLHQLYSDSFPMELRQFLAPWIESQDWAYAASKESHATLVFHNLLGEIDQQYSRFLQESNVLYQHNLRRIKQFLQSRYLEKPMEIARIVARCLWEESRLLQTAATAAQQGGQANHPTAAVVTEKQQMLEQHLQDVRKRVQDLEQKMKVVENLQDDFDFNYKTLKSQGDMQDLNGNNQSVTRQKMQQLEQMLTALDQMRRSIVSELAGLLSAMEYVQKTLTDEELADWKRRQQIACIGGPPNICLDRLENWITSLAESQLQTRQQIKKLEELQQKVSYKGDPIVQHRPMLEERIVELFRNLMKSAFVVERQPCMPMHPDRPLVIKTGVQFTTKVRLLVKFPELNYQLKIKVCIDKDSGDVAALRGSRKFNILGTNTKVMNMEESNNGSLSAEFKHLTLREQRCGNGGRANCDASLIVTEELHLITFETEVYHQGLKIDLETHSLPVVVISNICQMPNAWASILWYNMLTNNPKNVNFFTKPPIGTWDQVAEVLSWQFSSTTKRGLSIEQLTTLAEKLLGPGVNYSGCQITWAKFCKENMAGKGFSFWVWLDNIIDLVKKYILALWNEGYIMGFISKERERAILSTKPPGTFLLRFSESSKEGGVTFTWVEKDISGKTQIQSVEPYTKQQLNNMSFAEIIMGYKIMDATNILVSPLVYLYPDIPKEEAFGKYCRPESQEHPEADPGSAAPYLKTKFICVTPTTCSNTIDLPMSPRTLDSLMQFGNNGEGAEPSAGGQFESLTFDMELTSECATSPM

How the values were obtained:
[1] = target: endogenous STAT3 (OSM-activated) (UniProt P40763); test: EMSA; conditions: protein in an extract
[2] = target: STAT3-mCherry (WT, OSM-activated) (UniProt P40763); test: EMSA; conditions: protein in a lysate after overexpression, protein details: mCherry

Measured: binding result

AGCTTCATTTCCCGTAAATCCCTA (double strand) [m67 probe]
binds: [1] | [1]; label: digoxigenin | [2] | [2]; label: digoxigenin
